{"source": "patent US6110962A", "about": "“11-aryl-benzo[B]naphtho[2,3-D]furans and 11-aryl-benzo[B]naphtho[2,3-D]thiophenes useful in the treatment of insulin resistance and hyperglycemia” (American Home Products Corporation, priority 1999, dated 2000)", "tested_on": "rat hepatic microsomal PTPases", "test": "Inhibition of tri-phosphorylated insulin receptor dodecaphosphopeptide dephosphorylation by rat hepatic PTPases", "settings": "PTPase activity, compound at 50 μM"}
{"smiles": "O=[As]c1ccccc1", "note": "(stereo not shown)", "values": [{"measurement": "% Change from Control", "value": -57.06, "unit": "%"}]}
